Experimental data taken from publication PMC12017303 (Science Advances, 2025).

Tested on: SARS-CoV-2 Beta variant
Test: Mouse infection model, lung virus titers by plaque assay
Assay type: in vivo
Conditions: H-E staining

## CC(C)(C)[C@H](NC(=O)C(F)(F)F)C(=O)N1C[C@H]2[C@@H]([C@H]1C(=O)N[C@H](C#N)C[C@@H]1CCNC1=O)C2(C)C [nirmatrelvir, reference compound]
  mononuclear cell infiltration and respiratory epithelial cell injury in lung: to a minimal extent
